Laboratory results reported in ChEMBL document CHEMBL3120129, “Enantiomeric atropisomers inhibit HCV polymerase and/or HIV matrix: characterizing hindered bond rotations and target selectivity” (J Med Chem, 2014).

Experiments:
Hepatitis C virus = assay: Antiviral activity against HCV genotype 1b by HCV replicon assay; format: functional, organism-based, Hepacivirus hominis
[1] = Inhibition of HCV genotype 1b hexa-histidine-tagged NS5B polymerase expressed in baculovirus infected cell system

CN1CCC(N(c2ccc(Oc3ccccc3C(F)(F)F)cc2C(=O)O)C(=O)[C@H]2CC[C@H](C)CC2)CC1
EC50 (Hepatitis C virus): 0.07 µM | IC50 [1]: 0.13 µM

This is a selection: effects in other tests are not listed, and their absence says nothing.
